PubChem BioAssay AID504761 | Drosophila RNAi Screening Center, 2011

Assay: 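Genome-wide fly cell screen for genes dengue virus requires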 (primary screen)
Cells: D.Mel-2 cells from Drosophila
Reagent: long dsRNA against Drosophila genes
Treatment: infection with dengue virus type 2; dose and infection time not stated
Detection: 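Cells stained for dengue envelope protein and imaged; percent of infected cells per well on duplicate plates, ranked by infection, with stained nuclei counted for cell number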
Scale: infection score: higher = more virus-infected cells; cell count: higher = more cells in the well
Active means: 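Very low infection ranking in both replicate wells (chance probability at most 0.065), then a retest showing infection dropped 1.5-fold or more at p below 0.05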
Calls: active = confirmed: knock-down lowers infection; inactive = not picked or not confirmed
In all, the deposit lists about 22,000 reagents; below is an unselected part of those with a known target gene and a result. Of all reagents, 116 (0.52%) got an active call. 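Calls depend on retest data that are not deposited; infection was ranked per plate without normalising between plates; the unit of the infection score is not given.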 The raw values are shown without normalisation. A number with no mark means an inactive call. Names joined by + are all predicted targets of the reagent. The record does not give: the amount of reagent, the time to read-out.

The opening 3 records, to show the layout:
no.	predicted target	DRSC id	infection score, replicate 1	infection score, replicate 2	cell count, replicate 1	cell count, replicate 2
1	Or83a (Odorant receptor 83a)	DRSC12357	6.49	5.03	6733	6700
2	CG30087	DRSC21677	4.59	1.19	6292	6662
3	CG30087	DRSC27057	7.06	1.11	6724	6219

Results, from the start:
no.	predicted target	DRSC id	infection score, replicate 1	infection score, replicate 2	cell count, replicate 1	cell count, replicate 2
1	Or83a (Odorant receptor 83a)	DRSC12357	6.49	5.03	6733	6700
2	CG30087	DRSC21677	4.59	1.19	6292	6662
3	CG30087	DRSC27057	7.06	1.11	6724	6219
4	Eig71Ei	DRSC11156	0.38	2.1	6111	6146
5	Eig71Ei	DRSC29123			374	292
6	CG17724	DRSC06687	6.05	5.4	6430	6485
7	CG17724	DRSC27618	4.92	10.5	6710	6617
8	Cnep1r2 (CTD nuclear envelope phosphatase 1 regulatory subunit 2)	DRSC10950	5.5	8.36	6725	6447
9	Muc18B (Mucin 18B)	DRSC21644	1.93	6.02	6123	6746
10	Muc18B (Mucin 18B)	DRSC28889	7.97	12.8	2774	3667
11	ImpL2 (Ecdysone-inducible gene L2)	DRSC08666	7.44	1.86	6302	6543
12	ImpL2 (Ecdysone-inducible gene L2)	DRSC28691	6.92	7.18	5850	5585
13	CG7763	DRSC07043	5.6	21.9	1679	6170
14	CG15296	DRSC17983	1.87	1.03	6372	6435
15	CG15296	DRSC26051	1.25 (active)	0.52	6545	6106
16	Mnat9 (microtubule-associated Nat9)	DRSC14325	6.08		6494	482
17	DENR (Density regulated protein)	DRSC20151	8.08	4.05	6090	6167
18	CG8219	DRSC10971	0.97	3.34	6466	6105
19	CG8219	DRSC24577	7.89	20.4	6880	5859
20	CG14866	DRSC14989	4.49	28.8	6037	4530
21	Lamtor2 + CG30120	DRSC05726	1.68	1.57	5772	5618
22	Lamtor2 + CG30120	DRSC06922	5.22	16.1	5924	3376
23	trx (trithorax)	DRSC17089	6.06	7.23	6350	6558
24	CG13097	DRSC02199	28.8		4036	488
25	Claspin	DRSC08308	8.07	1.81	6244	6408
26	ndl (nudel)	DRSC11374	3.98	8.31	5704	5114
27	ndl (nudel)	DRSC26902	3.5	8.17	6322	6425
28	CG12310	DRSC09878	4.07	2.52	6038	6468
29	CG12310	DRSC25358	11.9	12.5	5714	5764
30	Ephrin	DRSC17165	10.4	2.29	5458	5625
31	Men-b (Malic enzyme b)	DRSC16736	1.63	1.21	6554	6138
32	Uch (Ubiquitin carboxy-terminal hydrolase)	DRSC00797	11.4	19.3	5894	5616
33	Herp (Homocysteine-induced endoplasmic reticulum protein)	DRSC02394	1.64	0.76	6025	6066
34	Herp (Homocysteine-induced endoplasmic reticulum protein)	DRSC26891	11.5	15.3	6589	6421
35	CG9641	DRSC00721	7.07	2.45	6139	6397
36	CG9641	DRSC27080	15.8	5.19	6504	6914
37	CG11417	DRSC18581	2.12	2.42	5699	6148
38	CG31055	DRSC13832	7.66	4.86	5664	5062
39	b6	DRSC18740	8.84	5.31	2274	6258
40	b6	DRSC24064	5.39	6.6	5953	6117
41	CG3634	DRSC11747	4.39	3.74	6151	6583
42	Sbp2 (SECIS-binding protein 2)	DRSC10766	11.1	7.14	6429	5925
43	CG14339	DRSC00369	25.6	5.64	6092	6348
44	CG14339	DRSC26560	8.47	3.45	6290	5539
45	elB (elbow B)	DRSC01379	3.98	1.11	5472	5395
46	elB (elbow B)	DRSC25039	6.72	2.1	6071	5810
47	Hs2st (Heparan sulfate 2-O-sulfotransferase)	DRSC03348	12.1	14.8	6519	6417
48	CG14572	DRSC11733	2.24	3.86	6746	6573
49	ara (araucan)	DRSC22984	2.94	14.1	5379	6517
50	ara (araucan)	DRSC25783	2.15	1.17	6407	6496
51	Hcs (Holocarboxylase synthetase)	DRSC12070	6.31	5.28	6579	6215
52	Hcs (Holocarboxylase synthetase)	DRSC12256	1.69	4.61	6980	6892
53	Polr2C (RNA polymerase II subunit C)	DRSC03415	54.7	52.8	3670	3715
54	Polr2C (RNA polymerase II subunit C)	DRSC23584	31	16.6	4048	4548
55	CG42685	DRSC01971	1.78	1.06	6118	6416
56	CG5693	DRSC02878	4.29	7.6	6031	6121
57	ppk26 (pickpocket 26)	DRSC10991	2.24	3.75	6342	5600
58	ppk26 (pickpocket 26)	DRSC25876	2.71	3.97	6129	5971
59	Acox3 (Acyl-CoA oxidase 3)	DRSC03251	1.43	3.58	6512	6531
60	Acox3 (Acyl-CoA oxidase 3)	DRSC23799	28.4	2.86	6233	6884
61	Sulf1 (Sulfated)	DRSC16874	2.16	5.7	6247	5891
62	Sulf1 (Sulfated)	DRSC27279	4.35	11.8	6870	6512
63	CG8519	DRSC10985	3.88	6.85	5876	5708
64	CG8519	DRSC26203	9.67	2.43	5886	5627
65	CG15169	DRSC02470	2.04	19.1	6778	5923
66	CG9257	DRSC03173	8.03	5.26	5357	6481
67	CG14196	DRSC19551	6.41	2.23	5917	6234
68	CG14196	DRSC26030	10.9	4.3	6017	5999
69	CG7519	DRSC11834	14.8	6.36	5778	6082
70	scyl (scylla)	DRSC11392	1.17	1.41	5715	5691
71	scyl (scylla)	DRSC27699	5.5	5.45	6203	5799
72	Rab3	DRSC07523	3.25	12.5	6194	6304
73	fok (fledgling of Klp38B)	DRSC02103	12.1	3.71	5920	6584
74	fok (fledgling of Klp38B)	DRSC23907	3.97	1.3	5821	6164
